Results deposited as PubChem BioAssay AID1259414 (Drosophila RNAi Screening Center, 2018)
The screen tested about 24,000 reagents; below is an unselected part of those that have a named target and a result. Over the whole deposit, about 1,210 (5%) are marked active. 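Inactive calls also include excluded dsRNAs with several or no targets, genes unexpressed in JW18, and well A1, regardless of score.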 A number with no mark means an inactive call. The numbers tell different reagents against one gene apart. Names joined by + are all predicted targets of the reagent. Reagent sequences are not shown.

- Test: 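Host factors increasing or decreasing Wolbachia levels in cultured fly cells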 (primary screen)
- System: Drosophila JW18 cells infected with Wolbachia
- Reagent: long dsRNA against Drosophila genes, 0.25 µg dsRNA per well of a 384-well plate
- Duration: 5 days
- Challenge: cells persistently infected with Wolbachia before knock-down; no added drug
- Read-out: 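Automated imaging of bacterial rRNA staining divided by host cell count, reported as plate-normalised robust z-score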
- Reading the numbers: Wolbachia per cell robust z: higher = more Wolbachia per host cell than the plate typical
- Hit rule: 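Hit when robust z is 1.5 or more, or -1.5 or less, in at least two of three replicates; excludes dsRNAs with several or no targets, genes not expressed in JW18 and well A1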

| predicted target | dsRNA no. | Wolbachia per cell robust z, rep 1 | Wolbachia per cell robust z, rep 2 | Wolbachia per cell robust z, rep 3 |
| --- | --- | --- | --- | --- |
| Cog3 | 1 | -1.51 | 0.491 | -0.643 |
| px | 1 | 0.739 | 1.11 | -0.687 |
| px | 2 | -0.0609 | 0.936 | 0.0157 |
| PH4alphaEFB | 1 | -0.112 | -0.332 | -2.86 |
| PH4alphaEFB | 2 | -4.68 | 0.303 | 0.0189 |
| Ir94c | 1 | 0.406 | 1.17 | -0.912 |
| CG7290 | 1 | 0.537 | -2.12 | 1.09 |
| CG7290 | 2 | -0.00641 | -0.473 | -0.531 |
| B-H2 | 1 | 0.0683 | 0.372 | -0.274 |
| B-H2 | 2 | -1.15 | -4.02 | -0.583 |
| CG3061 | 1 | -0.435 | -0.235 | -1.65 |
| CG3061 | 2 | 0.674 | 0.385 | 1.41 |
| CG13081 | 1 | 0.666 | 0.367 | 1.39 |
| sls | 1 | 0.848 | 0.494 | -0.174 |
| sls | 2 | -2.2 (active) | 1.26 | -2.3 |
| sls | 3 | 0.0636 | 0.951 | 0.72 |
| sls | 4 | -2.97 (active) | -1.74 | 0.542 |
| Ubi-p63E | 1 | 0.461 | 0.686 | 0.341 |
| CG13229 | 1 | 0.877 | 0.522 | 0.809 |
| PNKP | 1 | 0.77 | 0.429 | 0.602 |
| CG31689 | 1 | -0.265 | -0.11 | -0.395 |
| Amy-p | 1 | -1.05 | -0.398 | 0.53 |
| Paf-AHalpha | 1 | -1.58 | 0.534 | 0.383 |
| sn | 1 | 0.0446 | 0.476 | 0.0853 |
| sn | 2 | -0.883 | -0.873 | -0.0307 |
| CG3598 | 1 | -4.65 | 0.548 | -1.08 |
| CG3598 | 2 | -0.0383 | -0.306 | -0.415 |
| didum | 1 | 0.472 | 0.585 | 0.271 |
| didum | 2 | -1.47 | 0.341 | 1.15 |
| CG11586 | 1 | 0.558 | 1.09 | 0.322 |
| CG11586 | 2 | 0.206 | 0.95 | 0.455 |
| CG32371 | 1 | 0.828 | 0.773 | 1.41 |
| CG32371 | 2 | -1.63 | 0.738 | -0.642 |
| trh | 1 | -1.78 | 0.501 | 1.13 |
| trh | 2 | -1.39 | -0.499 | -2.68 |
| trh | 3 | -0.0758 | 0.976 | 0.803 |
| CG12825 | 1 | -0.41 | 0.631 | 0.502 |
| CG12825 | 2 | -0.092 | 1.82 | -0.833 |
| Gpo2 | 1 | -0.239 | -0.666 | -0.289 |
| RnrL | 1 | 2.23 (active) | 2.03 | 1.77 |
| atms | 1 | 0.294 | 0.259 | 0.914 |
| atms | 2 | 0.732 | 0.569 | 1.11 |
| CG9692 | 1 | -0.956 | -1.28 | -0.128 |
| Acp53Ea | 1 | 0.148 | 1.05 | 0.123 |
| GstE10 | 1 | -0.349 | 0.135 | 0.674 |
| GstE10 | 2 | 0.255 | 0.12 | -0.744 |
| eIF3f2 | 1 | -0.792 | -0.598 | 0.0656 |
| CG13282 | 1 | 0.141 | -0.856 | -0.743 |
| Nmnat | 1 | 0.657 | 0.507 | -0.608 |
| Nmnat | 2 | -0.733 | -0.679 | -2.12 |
| CG8838 | 1 | 0.46 | -1.67 | -0.197 |
| CG8838 | 2 | 0.357 | 0.157 | 0.682 |
| CG16863 | 1 | 0.37 | -2.05 | 1.03 |
| asRNA:CR43426 + CG32462 | 1 | 1.38 | 0.262 | 0.144 |
| soti | 1 | 0.325 | -0.691 | 1.86 |
| soti | 2 | -1.29 | -0.873 | 0.307 |
| CG15873 | 1 | 0.548 | -0.353 | 0.548 |
| Ret | 1 | -2.8 | 0.409 | 0.539 |
| Ret | 2 | -0.79 | -0.864 | 0.358 |
| SMSr | 1 | -0.0147 | 0.0683 | -1.98 |
| SMSr | 2 | -0.439 | -1.4 | -0.288 |
| Dph3 | 1 | -4.71 | -1.02 | 1.15 |
| Dph3 | 2 | 0.615 | 0.325 | 0.182 |
| Dhrs4 | 1 | 0.953 | 0.275 | -1.42 |
| qvr | 1 | -0.164 | -0.229 | 0.728 |
| lncRNA:CR32660 | 1 | -2.14 | -1.35 | -1.74 |
| lncRNA:CR32660 | 2 | -1.25 | -0.412 | -0.542 |
| CheA7a | 1 | -2.61 | -1.92 | -4.12 |

8 entries from above, limited to “Wolbachia per cell robust z, rep 1”.
CG13229: 0.877
PNKP: 0.77
CG31689: -0.265
Amy-p: -1.05
Paf-AHalpha: -1.58
sn #1: 0.0446
sn #2: -0.883
CG3598 #1: -4.65
